Results of unrelated studies side by side (data: NIAID ChemDB).

All rows: host cell toxicity; cell line: MT-2; read-out: CC50

An empty or dashed field is not shown. Lines come from different laboratories, so protocols vary. CCn: concentration that lowers growth or viability of the cells by n%.

{"structure": "[O-][n+]1onc2ncnc(N3CC[N+]4(CC3)CC[N+]3(CCN(c5ncnc6no[n+]([O-])c56)CC3)CC4)c21", "read by": "XTT", "value": "98.2 µM"}
{"structure": "O=C1NC(=O)C(CSCc2cccnc2)(CSCc2cccnc2)N1", "value": ">100 µM"}
{"structure": "COc1ccc(N(C)C(=O)[C@H](Cc2ccccc2)NC(=O)NS(=O)(=O)N(c2ccccc2)C(C)C)cc1", "read by": "XTT", "value": ">100 µM"}
{"structure": "O=C1NC(=O)C(CSCc2ccccn2)(CSCc2ccccn2)N1", "value": ">100 µM"}
{"structure": "COc1ccc(OC)c(CCNC(=S)Nc2ccccn2)c1", "read by": "MTT", "value": "84.7 µM"}
{"structure": "COc1ccc(N(C)C(=O)[C@H](Cc2ccccc2)NC(=O)NS(=O)(=O)n2nc(CN)c3ccccc32)cc1", "read by": "XTT", "value": ">100 µM"}
{"structure": "CN(C(=O)[C@H](Cc1cc(F)cc(F)c1)NC(=O)NS(=O)(=O)N[C@@H](Cc1cc(F)cc(F)c1)C(=O)N(C)c1ccc(C(F)F)nc1)c1ccc(C(F)F)nc1", "read by": "XTT", "value": "100 µM"}
{"structure": "COP(=O)(c1cc(C)cc(CCC#N)c1)c1c(C(N)=O)[nH]c2ccc(Cl)c(F)c12", "read by": "MTS", "value": "23.5 µM"}
{"structure": "Cc1cn([C@H]2C[C@H](N=[N+]=[N-])[C@@H](CO)O2)c(=O)[nH]c1=O", "read by": "MTT", "value": "70 µM"}
{"structure": "NC[C@@H]1O[C@H](O[C@H]2[C@@H](O)[C@H](O[C@@H]3[C@@H](O)[C@H](N)C[C@H](N)[C@H]3O[C@H]3O[C@H](CN)[C@@H](O)[C@H](O)[C@H]3N)O[C@@H]2CO)[C@H](N)[C@@H](O)[C@@H]1O", "read by": "trypan blue", "value": ">300 µM"}
{"structure": "N#Cc1cc(Cl)cc(Oc2ccc(Cl)cc2OCCn2ccc(=O)[nH]c2=O)c1", "read by": "MTT", "value": ">100 µM"}
{"structure": "Nc1nc2c(ncn2[C@H]2C=C[C@@H](CO)C2)c(=O)[nH]1", "value": ">100 µM"}
{"structure": "CC(=O)OCC1OC(SC2C(OC(C)=O)OC(COC(C)=O)C(OC(C)=O)C2OC(C)=O)C(OC(C)=O)C(OC(C)=O)C1OC(C)=O", "value": ">100 µg/mL"}
{"structure": "CN(C(=O)[C@H](Cc1cc(F)cc(F)c1)NC(=O)NS(=O)(=O)n1ccc2ccccc21)c1ccc2scnc2c1", "read by": "XTT", "value": ">100 µM"}
{"structure": "COc1ccc(CSCC2(CSCc3ccc(OC)cc3)NC(=O)NC2=O)cc1", "value": ">6 µM"}
{"structure": "Nc1ncnc2c1ncn2[C@H]1CC[C@@H](CO)S1", "value": ">100 µg/mL"}
{"structure": "COc1ccc(/C=C/C2NCCc3cc(OCc4ccccc4)c(OC)cc32)c(C)c1", "read by": "fluorescence", "value": "9.7 µM"}
{"structure": "O=C1NC(=O)C(CSCc2ccc([N+](=O)[O-])cc2)(CSCc2ccc([N+](=O)[O-])cc2)N1", "value": ">5 µM"}
{"structure": "COc1ccc(N(C)C(=O)[C@H](Cc2ccccc2)NC(=O)NS(=O)(=O)N[C@H](Cc2ccccc2)C(=O)N(C)c2ccc(OC)cc2)cc1", "read by": "XTT", "value": "33.3 µM"}
{"structure": "O=C1NC(=O)C(CSCCO)(CSCc2ccccc2)N1", "value": ">50 µM"}
{"structure": "CN(C(=O)[C@H](Cc1cc(F)cc(F)c1)NC(=O)NS(=O)(=O)N1CCc2cncnc21)c1ccc2scnc2c1", "read by": "XTT", "value": ">100 µM"}
{"structure": "OC[C@@H]1CC[C@H](n2cnc3c(Cl)ncnc32)S1", "value": ">21 µg/mL"}
{"structure": "COc1ccc(N(C)C(=O)[C@H](Cc2cc(F)cc(F)c2)NC(=O)NS(=O)(=O)N[C@@H](Cc2cc(F)cc(F)c2)C(=O)N(C)c2ccc(OC)nc2)cn1", "read by": "XTT", "value": "100 µM"}
{"structure": "CN(C(=O)[C@H](Cc1cc(F)cc(F)c1)NC(=O)NS(=O)(=O)N1CCc2cccnc21)c1ccc2scnc2c1", "read by": "XTT", "value": ">100 µM"}
{"structure": "Cc1cn(C[C@@H](CN=[N+]=[N-])OCP(=O)(O)O)c(=O)[nH]c1=O", "value": ">500 µM"}
{"structure": "O=C1NC(=O)C(CSCc2ccccc2)N1", "value": ">60 µM"}
{"structure": "COc1ccc(N(C)C(=O)[C@H](Cc2ccccc2)NC(=O)[C@H](Cc2ccccc2)NC(=O)N[C@@H](Cc2ccccc2)C(=O)N[C@@H](Cc2ccccc2)C(=O)N(C)c2ccc(OC)cc2)cc1", "read by": "XTT", "value": "100 µM"}
{"structure": "Cc1cn([C@H]2C=C[C@@H](COC(=O)CC3(C)C[C@](C)(O)CO3)O2)c(=O)[nH]c1=O", "value": ">1000 µM"}
{"structure": "CN(C(=O)[C@H](Cc1cc(F)cc(F)c1)NC(=O)NS(=O)(=O)N(C)c1ccccc1)c1ccc2scnc2c1", "read by": "XTT", "value": ">100 µM"}
{"structure": "CCCOc1nc(N)nc2c1ncn2[C@@H]1C=C[C@H](CO)C1", "value": "95.9 µM"}
{"structure": "O=c1nccc(NC(=S)NCCc2ccccc2)[nH]1", "read by": "MTT", "value": ">100 µM"}
{"structure": "CC(C)CN(C[C@@H](O)[C@H](Cc1ccccc1)NC(=O)O[C@H]1CO[C@H]2OCC[C@H]21)C1(C)C(=O)Nc2ccccc21", "value": ">10 µM"}
{"structure": "COc1ccc2c(c1)[C@@H]1C[C@]1(C(=O)N1[C@@H]3CC[C@H]1CN(C)C3)Cn1c-2c(C2CCCCC2)c2ccc(C(=O)NS(=O)(=O)N(C)C)cc21", "read by": "XTT", "value": "14 µM"}
{"structure": "COc1cc(CCNC(=S)Nc2cccc(C)n2)cc(OC)c1OC", "read by": "MTT", "value": "81 µM"}
{"structure": "Cc1ccc(C)n1-c1ccc(C(=O)O)c(O)c1", "read by": "XTT", "value": "2755 µM"}
{"structure": "CC(C)=CCN1Cc2c(OCCOCCOCCOCCOCCOCCn3c(=O)ccn([C@H]4C=C[C@@H](COP(=O)(O)OP(=O)(O)OP(=O)(O)O)O4)c3=O)ccc3[nH]c(=S)n(c23)C[C@@H]1C", "read by": "MTT / absorbance", "value": "38 µM"}
{"structure": "COc1ccc(N(C)C(=O)[C@H](Cc2ccccc2)NC(=O)c2cc(C)cc(C(=O)N[C@@H](Cc3ccccc3)C(=O)N(C)c3ccc(OC)cc3)c2)cc1", "read by": "XTT", "value": "33.3 µM"}
{"structure": "Cc1cc(C)nc(NC(=S)NCCc2c(Cl)cccc2Cl)c1", "read by": "MTT", "value": "93 µM"}
{"structure": "COc1ccc(N(C)C(=O)[C@H](Cc2ccccc2)NC(=O)NS(=O)(=O)N[C@@H](Cc2ccccc2)C(=O)N2CCCC2)cc1", "read by": "XTT", "value": "33.3 µM"}
{"structure": "N#Cc1cc(C#N)cc(Oc2cc(Cl)ccc2OCCn2ccc(=O)[nH]c2=O)c1", "read by": "MTT", "value": "77 µM"}
{"structure": "NC(N)=NCCC[C@H](N)C(=O)NC[C@@H]1OC(O[C@H]2[C@@H](O)[C@H](O[C@@H]3[C@@H](O)[C@H](NC(=O)[C@@H](N)CCCN=C(N)N)C[C@H](NC(=O)[C@@H](N)CCCN=C(N)N)[C@H]3O[C@H]3O[C@H](CNC(=O)[C@@H](N)CCCN=C(N)N)[C@@H](O)[C@H](O)[C@H]3NC(=O)[C@@H](N)CCCN=C(N)N)O[C@@H]2CO)[C@H](NC(=O)[C@@H](N)CCCN=C(N)N)[C@@H](O)[C@@H]1O", "read by": "MTT", "value": "275 µM"}
{"structure": "C[C@@H](NC(=O)C(=O)Nc1ccc(Cl)cc1)[C@H](c1ccccc1)N1CCOCC1", "read by": "XTT", "value": ">99.6 µM"}
{"structure": "NS(=O)(=O)c1ccc(NC(=S)NCCc2ccccc2F)cc1", "read by": "MTT", "value": "≥100 µM"}
{"structure": "CCOc1ccc2c(=O)n(-c3ccc(Cl)c4c(NS(C)(=O)=O)nn(C)c34)c(C(Cc3cc(F)cc(F)c3)NC(=O)Cn3nc(C(F)F)c4c3C(F)(F)C3CC43)nc2n1", "read by": "XTT", "value": ">10 µM"}
{"structure": "O=C(O)[C@H]1O[C@@H](Oc2cc3oc(-c4ccc(O)cc4)cc(=O)c3c(O)c2O)[C@H](O)[C@@H](O)[C@@H]1O", "read by": "MTT", "value": ">1082 µM"}
{"structure": "N#Cc1ccc(Oc2cc(Cl)cc(Cl)c2)c(OCCn2ccc(=O)[nH]c2=O)c1", "read by": "MTT", "value": ">61 µM"}
{"structure": "Cc1cn([C@H]2CC[C@@H](CO)S2)c(=O)[nH]c1=O", "value": ">100 µg/mL"}
{"structure": "CN(C(=O)[C@H](Cc1cc(F)cc(F)c1)NC(=O)NS(=O)(=O)N1CCCC1c1ccccn1)c1ccc2scnc2c1", "read by": "XTT", "value": ">100 µM"}

Repeating the first 3 entries:

| structure | read by | value |
|---|---|---|
| [O-][n+]1onc2ncnc(N3CC[N+]4(CC3)CC[N+]3(CCN(c5ncnc6no[n+]([O-])c56)CC3)CC4)c21 | XTT | 98.2 µM |
| O=C1NC(=O)C(CSCc2cccnc2)(CSCc2cccnc2)N1 | - | >100 µM |
| COc1ccc(N(C)C(=O)[C@H](Cc2ccccc2)NC(=O)NS(=O)(=O)N(c2ccccc2)C(C)C)cc1 | XTT | >100 µM |